{"source": "patent US7048924B2", "about": "“Combination antiviral and interleukin-2 therapy for HIV infection” (Chiron Corporation, priority 2000, dated 2006)", "origin": "cited, not measured here", "tested_on": "HIV", "conditions": "low-dose daily subcutaneous IL-2, HAART discontinued"}
{"substance": "IL-2: lymphokine interleukin-2, given as low-dose daily subcutaneous injection in the cited trial", "values": [{"measurement": "Course of plasma virus levels after the peak", "setting": "9 subjects with HIV infection", "value": "subsequently declined in concert with a rise in CD8+ T cells"}, {"measurement": "Onset of transient surge in viremia after discontinuation of HAART (mean)", "setting": "9 subjects with HIV infection", "value": "about 19 days"}, {"measurement": "Time from onset of the surge in viremia to its peak", "setting": "9 subjects with HIV infection", "value": "roughly two"}, {"measurement": "Mean virus concentration relative to the peak concentration", "setting": "by 6 weeks after the onset of viremia", "value": "less than 10%"}]}
